Compound potency records, mixed from different reports. Data source: NIAID ChemDB in PubChem.

Common to all: tests in culture; agent: Measles virus; method: plaque count; measure: EC50

Neighbouring rows are from separate reports. ECn: concentration that inhibits the pathogen or its effect by n%.

{"structure": "CC[C@@H](C(C)C)[C@H](O)[C@@H](O)[C@@H](C)[C@H]1CC[C@H]2[C@@H]3CC(=O)[C@@]4(O)C[C@@H](O)CC[C@]4(C)[C@H]3CC[C@]12C", "cells": "VERO", "strain or isolate": "MV/Brazil/001/91", "value": "26 µM"}
{"structure": "C#Cc1c(C(N)=O)ncn1[C@@H]1O[C@H](CO)[C@@H](O)[C@H]1O", "cells": "VERO", "strain or isolate": "Edmonston", "value": "1.51 µg/mL"}
{"structure": "O=C1C=CN([C@@H]2O[C@H](CO)[C@@H](O)[C@H]2O)C(=O)C1", "cells": "VERO", "strain or isolate": "Niigata-1", "value": ">500 µg/mL"}
{"structure": "CC[C@H](/C=C/[C@@H](C)[C@H]1CC[C@H]2[C@@H]3CC(=O)[C@@]4(O)C[C@@H](O)CC[C@]4(C)[C@H]3CC[C@]12C)C(C)C", "cells": "VERO", "strain or isolate": "MV/Brazil/001/91", "value": "585 µM"}
{"structure": "Nc1ncnc2c1ncn2[C@H]1[C@H](O)[C@H](O)[C@]2(CO)O[C@H]12", "cells": "VERO", "strain or isolate": "Niigata-1", "value": "0.84 µg/mL"}
{"structure": "CC[C@@H](C(C)C)[C@@H](O)[C@H](O)[C@@H](C)[C@H]1CC[C@H]2[C@@H]3COC(=O)C4C[C@H](O)[C@H](O)C[C@]4(C)[C@H]3CC[C@]12C", "cells": "VERO", "strain or isolate": "MV/Brazil/001/91", "value": "8 µM"}
{"structure": "CCOC(=O)CSc1nsc(-c2ccccc2)c1C#N", "cells": "HEP-2", "strain or isolate": "Edmonston", "value": ">200 µg/mL"}
{"structure": "CC[C@@H](C(C)C)[C@H](O)[C@@H](O)[C@@H](C)[C@H]1CC[C@H]2[C@@H]3CC(=O)[C@@]4(O)C[C@@H](OC(C)=O)CC[C@]4(C)[C@H]3CC[C@]12C", "cells": "VERO", "strain or isolate": "MV/Brazil/001/91", "value": "23 µM"}
{"structure": "NC12CC3CC(CC(C3)C1)C2", "cells": "VERO", "strain or isolate": "Sugiyama", "value": "100 µg/mL"}
{"structure": "CCCSc1nsc(-c2ccccc2)c1C(N)=O", "cells": "HEP-2", "strain or isolate": "Edmonston", "value": ">300 µg/mL"}
{"structure": "CC[C@@H](C(C)C)[C@@H](O)[C@H](O)[C@@H](C)[C@H]1CC[C@H]2[C@@H]3CC(=O)[C@H]4C[C@H](O)[C@H](O)C[C@]4(C)[C@H]3CC[C@]12C", "cells": "VERO", "strain or isolate": "MV/Brazil/001/91", "value": "42 µM"}
{"structure": "OC[C@H]1O[C@@H]2O[C@H]3[C@H](O)[C@@H](O)[C@@H](O[C@H]4[C@H](O)[C@@H](O)[C@@H](O[C@H]5[C@H](O)[C@@H](O)[C@@H](O[C@H]6[C@H](O)[C@@H](O)[C@@H](O[C@H]7[C@H](O)[C@@H](O)[C@@H](O[C@H]1[C@H](O)[C@H]2O)O[C@@H]7CO)O[C@@H]6CO)O[C@@H]5CO)O[C@@H]4CO)O[C@@H]3CO", "cells": "VERO", "strain or isolate": "CAM/RB", "value": ">2560 µM"}
{"structure": "CC1(C)[C@@H](O[C@H]2O[C@H](C(=O)O)[C@@H](O)[C@H](O)[C@H]2O[C@@H]2O[C@H](C(=O)O)[C@@H](O)[C@H](O)[C@H]2O)CC[C@]2(C)[C@H]3C(=O)C=C4[C@@H]5C[C@@](C)(C(=O)O)CC[C@]5(C)CC[C@@]4(C)[C@]3(C)CC[C@@H]12", "cells": "VERO", "strain or isolate": "Niigata-1", "value": "760 µg/mL"}
{"structure": "N#Cc1c(SCCCBr)nsc1-c1ccccc1", "cells": "HEP-2", "strain or isolate": "Edmonston", "value": ">25 µg/mL"}
{"structure": "CC[C@@H](C(C)C)[C@H](O)[C@@H](O)[C@@H](C)[C@H]1CC[C@H]2[C@@H]3CC(=O)[C@H]4C[C@@H](Br)CC[C@]4(C)[C@H]3CC[C@]12C", "cells": "VERO", "strain or isolate": "MV/Brazil/001/91", "value": "38 µM"}
{"structure": "N#CCSc1nsc(-c2ccccc2)c1C#N", "cells": "HEP-2", "strain or isolate": "Edmonston", "value": ">10 µg/mL"}
{"structure": "NC(=O)c1ncn([C@@H]2O[C@H](CO)[C@@H](O)[C@H]2O)n1", "cells": "VERO", "strain or isolate": "Niigata-1", "value": "8.5 µg/mL"}
{"structure": "OCC1OC2OC3C(CO)OC(OC4C(CO)OC(OC5C(CO)OC(OC6C(CO)OC(OC7C(CO)OC(OC8C(CO)OC(OC9C(CO)OC(OC1C(O)C2O)C(O)C9O)C(O)C8O)C(O)C7O)C(O)C6O)C(O)C5O)C(O)C4O)C(O)C3O", "cells": "VERO", "strain or isolate": "Edmonston", "value": ">2560 µM"}
{"structure": "NC(=O)c1[nH]nc([C@@H]2O[C@H](CO)[C@@H](O)[C@H]2O)c1O", "cells": "VERO", "strain or isolate": "Yamagata-1", "value": "0.12 µg/mL"}
{"structure": "CC[C@H](/C=C/[C@@H](C)[C@H]1CC[C@H]2[C@@H]3CC(=O)[C@@]4(O)C[C@@H](Br)CC[C@]4(C)[C@H]3CC[C@]12C)C(C)C", "cells": "VERO", "strain or isolate": "MV/Brazil/001/91", "value": "5 µM"}
{"structure": "CCSc1nsc(-c2ccccc2)c1C#N", "cells": "HEP-2", "strain or isolate": "Edmonston", "value": ">100 µg/mL"}

The first 2 rows once more:

structure,cells,strain or isolate,value
CC[C@@H](C(C)C)[C@H](O)[C@@H](O)[C@@H](C)[C@H]1CC[C@H]2[C@@H]3CC(=O)[C@@]4(O)C[C@@H](O)CC[C@]4(C)[C@H]3CC[C@]12C,VERO,MV/Brazil/001/91,26 µM
C#Cc1c(C(N)=O)ncn1[C@@H]1O[C@H](CO)[C@@H](O)[C@H]1O,VERO,Edmonston,1.51 µg/mL